# Results reported in PubChem BioAssay AID485367 (National Center for Advancing Translational Sciences (NCATS), 2010).
# Protein sequences, listed by entry. Tags and fused reporters are not part of them. Lines headed by an entry give the natural chain unless they say otherwise; changes in a name come on top.
# UniProt O15648: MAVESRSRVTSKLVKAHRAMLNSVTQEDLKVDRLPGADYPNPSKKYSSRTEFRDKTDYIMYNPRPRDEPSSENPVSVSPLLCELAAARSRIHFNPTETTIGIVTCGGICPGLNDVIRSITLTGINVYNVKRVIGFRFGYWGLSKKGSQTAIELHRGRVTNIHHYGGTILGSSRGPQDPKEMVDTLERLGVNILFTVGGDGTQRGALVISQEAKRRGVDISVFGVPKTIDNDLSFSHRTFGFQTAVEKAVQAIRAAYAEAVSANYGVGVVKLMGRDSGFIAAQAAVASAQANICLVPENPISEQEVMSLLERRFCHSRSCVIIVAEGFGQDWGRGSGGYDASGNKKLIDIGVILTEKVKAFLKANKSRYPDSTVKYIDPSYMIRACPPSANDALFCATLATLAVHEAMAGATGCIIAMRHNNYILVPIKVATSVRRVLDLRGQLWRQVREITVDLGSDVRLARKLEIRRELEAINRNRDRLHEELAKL
# The entries are a selection whose mix differs from that of the whole data set. Calls of active or inactive are those of the source. Calls follow the shape of the dose curve; as a rule, active = well fitted inhibition curve with a large enough effect; inconclusive = small, poorly fitted or top-dose-only effect, or effect the other way; inactive = flat fitted curve, though single readings scatter. Entries that show only a call come without a potency.
# Molecular target: ATP-dependent 6-phosphofructokinase (Trypanosoma brucei brucei) (UniProt O15648)
# Assay: qHTS Assay to Find Inhibitors of T. brucei phosphofructokinase; also: nearly all actives have a fitted effect of over 60% in size
# Settings: T. brucei PFK, ADP-Glo luminescence; series mostly up to 57.5 µM
# Excerpt: NIH Molecular Libraries Probe Production Network [MLPCN] NIH Chemical Genomics Center [NCGC] Grant: 1 R03 MH092153-01 PI Name: Malcolm Walkinshaw, University of Edinburgh NCGC Assay Overview: Various species of the protozoan family Trypanosomatidae are responsible for a range of serious human diseases in tropical and subtropical areas of the world. […] Many of the disorders caused by trypanosomatids are fatal if left untreated, but most currently used drugs are inefficient and toxic. […] Oxidative metabolism involving the mitochondrial tricarboxylic acid cycle and oxidative phosphorylation are repressed in these parasites, and recent RNA interference (RNAi) experiments have shown that even partial depletion of certain individual glycolytic enzymes can lead to the death of cultured parasites. One such glycolytic enzyme, phosphofructokinase (PFK), catalyzes the formation of fructose-1,6-bisphosphate (F1,6BP) and ADP from fructose-6-phosphate (F6P) and ATP, and in many metabolic circumstances makes an important contribution to the control of flux through the glycolytic pathway. As a specific glycolytic target, PFK is particularly attractive as it catalyzes the first irreversible step in glycolysis, and structural and kinetic studies have shown very substantial and essential differences from corresponding host enzymes, allowing for the discovery of parasite-selective inhibitors. The goal of this screen is to find small-molecule inhibitors of T. brucei PFK using a biochemical assay that measures PFK activity as a function of ADP production. A luminescence-based assay for T. brucei PFK activity has been developed which uses luciferase to detect production of ADP. Traditional luciferase-based nucleotide detection reagents rely on ATP production as a direct substrate for the luciferase reaction; however, PFK catalyzes the transfer of a phosphate from ATP to F6P, resulting in the net depletion of ATP. To directly measure the ADP product of the PFK reaction, we used the ADP-Glo detection kit (Promega), which utilizes two separate reactions to 1) deplete all remaining uncatalyzed ATP and 2) convert all remaining ADP to ATP, which is then detected through a traditional luciferase-coupled reaction. Compounds were screened as a concentration-titration series that ranged from 57 uM to 0.7 nM.
# NCGC Assay Protocol Summary: NCGC Assay Protocol Summary: Substrate buffer was dispensed into white, solid 1536-well plates at 3uL/well in 0.1M triethanolamine (TEA) buffer, pH 8.0, containing final concentrations of 5 mM MgCl2, 0.01% Tween20, 0.5 mM fructose-6-phosphate (F6P) and 0.1mM ATP. Then, 23 nL of compounds or DMSO were delivered to each well using a pin tool. One uL T. brucei PFK (0.1M TEA, 0.01% Tween20, 0.1% bovine serum albumin (BSA) and 1.25nM PFK, final concentrations) was then dispensed, and plates were incubated at room temperature for 45 min. The luminescent detection reagent, ADP-Glo (Promega), was then added in two steps: the first reagent, ADP-Glo (which converts remaining uncatalyzed ATP), was added at 2.5uL/well and incubated for ten minutes at room temperature, and the second component, Kinase Detection reagent (which converts ADP to ATP as a substrate for luciferase-based luminescence), was added immediately after at 5uL/well, followed by one final ten minute room temperature incubation. The plates were measured on a ViewLux plate reader for luminescent signal using a clear filter with a one second exposure. The %Activity was determined from the corrected luminescence values. As no specific T. brucei PFK inhibitors have been identified in the literature, 1x (1.25nM) and 0x PFK enzyme controls (untreated) were included to normalize %Activity of identified inhibitors; 0x enzyme values corresponded to 100%Activity (full inhibition), while 1x PFK enzyme values were used to normalize 0%Activity (no inhibition). Concentration-response curves were fitted to the signals arising from the resulting luminescence. […]
row,SMILES,Potency
1,COP1(=S)c2c(C)nn(CCC#N)c2N=C(c2ccc(F)cc2)N1C (configuration not stated),inactive
2,O=C(COc1ccccc1)OC1CN2CCC1CC2 (configuration not stated),inactive
3,O=C(Nc1ccncc1[N+](=O)[O-])c1ccc([N+](=O)[O-])cc1[N+](=O)[O-],inactive
4,CCOC(=O)c1ccc(NC(=O)C(C)(CCl)SC)cc1 (configuration not stated),inactive
5,O=C(OC1CN2CCC1CC2)c1cccc([N+](=O)[O-])c1 (configuration not stated),inactive
6,CCC(C)N(CC(C)C)C(=S)SC(NC(C)=O)C(Cl)(Cl)Cl (configuration not stated),inactive
7,CCOC(=O)Nc1ccc([As](=O)(O)O)c(O)c1,inactive
8,CCCCOc1ccc(C(=O)NCC2(N3CCCCC3)CCCCC2)cc1OC,inactive
9,Cc1cc(SC(NC(=O)c2ccccc2)C(Cl)(Cl)Cl)nc(C(C)C)n1 (configuration not stated),inactive
10,CCOC(=O)Nc1cccc([As](=O)(O)O)c1,inactive
11,O=[N+]([O-])c1ccc(Nc2ccc(Oc3ccc([N+](=O)[O-])cc3[N+](=O)[O-])cc2)c([N+](=O)[O-])c1,inactive
12,O=P(Nc1ccccn1)(c1cccc2ccccc12)c1cccc2ccccc12,inactive
13,O=[As](O)(c1ccc(O)cc1)c1ccccc1O,inactive
14,C[As](=O)(O)c1cccc(C(=O)O)c1,inactive
15,COc1cc(C(=O)NCC2(N3CCOCC3)CCCCC2)ccc1OCC(C)C,inactive
16,Cc1ccc2nc3c(c(C)c2c1)CC(C(Cl)Cl)S3 (configuration not stated),inactive

row,SMILES,Potency
1,Cc1ccc(OP(=O)(Nc2ccc([N+](=O)[O-])cn2)Oc2ccc(C)cc2)cc1,inactive
2,CC(C)c1ccc(OP(=O)(Nc2ccccn2)Oc2ccccc2F)cc1 (configuration not stated),inactive
3,ClCCSc1nnc(-c2cccnc2)o1,inactive
4,CCN(CC)C(=S)SC(NC=O)C(Cl)(Cl)Cl (configuration not stated),inactive
5,CC(C)NC(=O)NP(=O)(Oc1ccccc1)Oc1ccccc1,inactive
6,O=[N+]([O-])c1cc([N+](=O)[O-])c(-c2ccn[nH]2)s1,inactive
7,O=C(OC1CN2CCC1CC2)C12CC3CC(CC(C3)C1)C2 (configuration not stated),inactive
8,Cc1cc(=O)[nH]c(N[N+](=O)[O-])n1,inactive
9,Cc1c2c(nc3ccccc13)SC(C(Cl)Cl)C2 (configuration not stated),inactive
10,COc1ccc2nc(NP(=O)(c3ccccc3)c3ccccc3)sc2c1,inactive
11,COc1cc(I)ccc1[As](=O)(O)O,inactive
12,COc1ccc(N/C(=N/P(=O)(N2CCOCC2)N2CCOCC2)N2CCOCC2)cc1,inactive
13,COc1cc(C(=O)NCC2(N3CCOCC3)CCCCC2)cc(Cl)c1OC(C)C,inactive
14,O=[As](O)(O)c1cccnc1,inactive
15,CS(=O)(=O)c1ccc(Cl)c(NC(=O)COC(=O)C(O)(c2ccccc2)c2ccccc2)c1,inactive
16,O=C(OC1CN2CCC1CC2)c1ccc(Cl)cc1 (configuration not stated),inactive
